Results of unrelated studies side by side (data: NIAID ChemDB).

Shared fields: tests in culture; species: Hepatitis C virus; measure: EC50

Two numbers with a dash give a range or band. Lines come from different laboratories, so protocols vary. ECn is the concentration giving n% inhibition of infection, replication or growth. Blank or dashed fields: not listed here.

structure | strain or isolate | cell line | read by | setting | result
CCOCCN(C(=O)C1CCC(C)CC1)c1cc(-c2ccc(-c3cn4ccccc4n3)cc2)sc1C(=O)O | 1b |  | replicon / ELISA |  | 0.01–0.049 µM
COC(=O)N[C@H](C(=O)N1CCC[C@@H]1c1ncc(-c2ccc(-c3ccc(-c4cnc([C@@]5(C)CCCN5C(=O)[C@@H](N=C(NC#N)N(C)C)C(C)C)[nH]4)cc3)cc2)[nH]1)C(C)C | 1b |  |  |  | 0.00001–0.000999 µM
COc1ccc(S(=O)(=O)Oc2ccccc2/C=N/NC(=O)Cc2cccc(OC)c2)cc1 |  | Huh7 | replicon |  | <5 µM
O=C(O)c1sc(-c2ccc(-c3cc4ncccn4n3)cc2)cc1N(C(=O)C1CCC(C(F)(F)F)CC1)C1CCOCC1 | 1a |  | replicon / ELISA |  | 0.01–0.049 µM
Cc1cccc(C(=O)N2c3cccc(O)c3NC3=C(C(=O)CC(C)(C)C3)C2c2ccc(OCc3ccc(F)cc3)cc2F)n1 | 1b |  | luciferase / reporter gene / replicon |  | 2.41 µM
CCOCCN(C(=O)C1CCC(C)CC1)c1cc(-c2ccc(-c3cc4nccc(N)n4n3)cc2)sc1C(=O)O | 1a |  | replicon / ELISA |  | 0.001–0.0049 µM
CCc1cc2c(C(=O)NC)c(-c3ccc(F)cc3)oc2cc1NS(C)(=O)=O |  | Huh7 | replicon |  | <10 µM
COC(=O)N[C@@H](C(=O)N(C)[C@@H](C)c1ncc(-c2ccc(-c3ccc(-c4cnc([C@H]5CCCN5C(=O)[C@@H](c5ccccc5)N(C)C)[nH]4)cc3)cc2)[nH]1)c1ccccc1 | 1b |  |  |  | 0.00001–0.000999 µM
CNC(=O)c1c(-c2ccc(F)cc2)oc2cc(-c3c(C)noc3C)c(OCCCO)cc12 |  | Huh7 | replicon |  | <1 µM
Cc1ccccc1S(=O)(=O)Oc1ccccc1/C=N/NC(=O)Cc1ccccc1 |  | Huh7 | replicon |  | >50 µM
Nc1cnc(-c2ccc3nc(NCc4ccc(S(N)(=O)=O)cc4)nc(NCC(F)(F)F)c3n2)cn1 |  |  | replicon |  | <0.1 µM
CCCCCCCCOc1ccc(N(C(=O)COC(C)=O)c2nc(-c3cccnc3)c(F)s2)cc1C(F)(F)F |  |  |  |  | <1 µM
CCCc1ccc(S(=O)(=O)Oc2ccccc2/C=N/NC(=O)Cc2ccccc2)cc1 |  | Huh7 | replicon |  | <5 µM
CNC(=O)c1c(-c2ccc(F)cc2)oc2cc(CN(C)C)c(OC(C)C)cc12 |  | Huh7 | replicon |  | <30 µM
COCCN(C(=O)C1CCC(C)CC1)c1cc(-c2ccc(-c3cn4ccccc4n3)cc2)sc1C(=O)O | 1b |  | replicon / ELISA |  | 0.01–0.049 µM
CCN(CC)[C@@H](C(=O)N1CCC[C@@H]1c1ncc(-c2cnc(-c3ccc(-c4nc([C@H]5CCCN5C(=O)[C@@H](c5ccccc5)N(C)C)[nH]c4C(F)(F)F)cc3)nc2)[nH]1)c1ccccc1 | 1b |  |  |  | 0.00001–0.000999 µM
NS(=O)(=O)c1ccc(CNc2nc(OC3CCC3)c3nc(-c4ccc(F)cc4)ccc3n2)cc1 |  |  | replicon |  | <0.1 µM
CC1CCC(C(=O)N(c2cc(-c3ccc(-c4cc5ncccn5n4)cc3)sc2C(=O)O)C2CCC(O)CC2)CC1 | 1b |  | replicon / ELISA |  | 0.01–0.049 µM
COC(=O)N[C@@H](C(=O)N1CCC[C@@H]1c1ncc(-c2ccc(-c3ccc(-c4nc([C@H]5CCCN5C(=O)[C@H](NC(=O)OC)c5ccccc5)[nH]c4C(F)(F)F)cc3)cc2)[nH]1)c1ccccc1 | 1b |  |  |  | 0.00001–0.000999 µM
Cc1cc(NC(=O)CCC(=O)N2c3cccc(O)c3NC3=C(C(=O)CC(C)(C)C3)C2c2ccc(OCc3ccccc3)cc2Cl)c2ccccc2n1 | 1b |  | luciferase / reporter gene / replicon |  | 12.66 µM
COC(=O)N[C@@H](C(=O)N[C@@H](C)c1ncc(-c2ccc(-c3ccc(-c4cnc([C@H]5CCCN5C(=O)[C@H](NC(=O)OC)c5ccccc5)[nH]4)cn3)cc2)[nH]1)c1ccccc1 | 1b |  |  |  | 0.00001–0.000999 µM
CCCCCCCCOc1ccc(N(C(=O)NCC)c2nc(-c3cccnc3)cs2)cc1 |  |  |  |  | >10 µM
COc1ccccc1CC(=O)N/N=C/c1ccccc1OS(=O)(=O)c1ccc(C(F)(F)F)cc1 |  | Huh7 | replicon |  | 5–50 µM
CNC(=O)c1c(-c2ccc(F)cc2)oc2cc(N(C)S(C)(=O)=O)c(OCc3ccc(C(=O)O)c(O)c3)cc12 |  | Huh7 | replicon |  | <10 µM
CCCCCCCCOc1ccc(N(C(=O)C(=O)OC)c2nc(-c3ccc(Cl)s3)cs2)cc1 |  |  |  |  | <1 µM
CCCCNC(=O)c1ccc(-c2ccc3nc(N)nc(OCC)c3n2)cc1 |  | Huh7 | replicon |  | 0.3–1 µM
CNC(=O)c1c(-c2ccc(F)cc2)oc2cc(C)c(OC)cc12 |  | Huh7 | replicon |  | <10 µM
CC1CCC(C(=O)N(CC2CCOCC2)c2cc(-c3ccc(-c4nc5ncccc5o4)cc3)sc2C(=O)O)CC1 | 1a |  | replicon / ELISA |  | 0.01–0.049 µM
COCCNc1nc(N)nc2ccc(-c3ccc(NC(=O)OC)cc3)nc12 |  | Huh7 | replicon |  | 0.3–1 µM
COC(=O)N[C@@H](C(=O)N[C@@H](C)c1ncc(-c2ccc(-c3cnc(-c4cnc([C@H]5CCCN5C(=O)[C@H](NC(=O)OC)c5ccccc5)[nH]4)cn3)cc2)[nH]1)c1ccccc1 | 1b |  |  |  | 0.00001–0.000999 µM
CNC(=O)c1c(-c2ccc(F)cc2)oc2cc(NS(=O)(=O)C(C)C)c(OC(C)C)cc12 |  | Huh7 | replicon |  | <10 µM
COc1c(C(C)(C)C)cc(-c2ccc[nH]c2=O)c2ncc(-c3ccc(NS(C)(=O)=O)cc3)cc12 | GT-1b Con1 | Huh7 | replicon | 40% human serum | 0.0056 µM
CC(C)COc1ccc(N(C(N)=O)c2nc(-c3ccccn3)cs2)cc1C(F)(F)F |  |  |  |  | <1 µM
CCOc1nc(N)nc2ccc(-c3ccc(C(=O)NC(C)(C)C)cc3)nc12 |  | Huh7 | replicon |  | >1 µM
CNC(=O)c1c(-c2ccc(F)cc2)oc2cc(Nc3ccncc3)c(OC(C)C)cc12 |  | Huh7 | replicon |  | <30 µM
CCOc1nc(NCc2ccc(F)cc2F)nc2ccc(-c3ccc(F)cc3)nc12 |  |  | replicon |  | <0.1 µM
COC(=O)N[C@@H](C(=O)N1CCC[C@H]1c1ncc(-c2ccc(-c3ccc(-c4cnc([C@@H]5CCCN5C(=O)[C@H](NC(=O)OC)c5ccccc5)[nH]4)cn3)nc2)[nH]1)c1ccccc1 | 1b |  |  |  | 0.00001–0.000999 µM
O=C(Cc1cccc(Cl)c1)N/N=C/c1cc(F)ccc1OS(=O)(=O)c1ccc(C(F)(F)F)cc1 |  | Huh7 | replicon |  | <5 µM
CC(C)(N)C(=O)Nc1ccc(-c2ccc3nc(N)nc(NCCS(C)(=O)=O)c3n2)cc1 |  | Huh7 | replicon |  | <0.3 µM
O=C(Cc1ccc(F)cc1Cl)N/N=C/c1ccccc1OS(=O)(=O)c1ccc(C(F)(F)F)cc1 |  | Huh7 | replicon |  | <5 µM
NS(=O)(=O)c1ccc(CNc2nc(NCC(F)(F)F)c3nc(-c4ccc(F)c(S(=O)(=O)N[C@@H]5CCNC5)c4)ccc3n2)cc1 |  |  | replicon |  | <0.1 µM
COc1cccc(CC(=O)N/N=C/c2ncccc2OS(=O)(=O)c2ccc(C(F)(F)F)cc2)c1 |  | Huh7 | replicon |  | 5–50 µM
COCCN(C(=O)C1CCC(C(F)(F)F)CC1)c1cc(-c2ccc(-c3cc4ncccc4o3)cc2)sc1C(=O)O | 1a |  | replicon / ELISA |  | 0.1–0.49 µM
CC1(C)CC(=O)C2=C(C1)Nc1c(O)cccc1NC2c1ccc(C(F)(F)F)cc1F | 1b |  | luciferase / reporter gene / replicon |  | 85.06 µM
CCCCCc1ccc(S(=O)(=O)Oc2ccccc2/C=N/NC(=O)Cc2cccc(OC)c2)cc1 |  | Huh7 | replicon |  | <5 µM
CC1(C)CC(=O)C2=C(C1)Nc1c(O)cccc1N(C(=O)CCC(=O)N1CCC(N3CCOCC3)CC1)[C@H]2c1ccc(OCc2ccccc2)cc1Cl | 1b |  | luciferase / reporter gene / replicon |  | 5.51 µM
COCCN(C(=O)C1CCC(C)CC1)c1cc(-c2ccc(-c3cc4ncccn4n3)cc2)sc1C(=O)O | 1b |  | replicon / ELISA |  | 0.001–0.0049 µM
CCOc1nc(NCc2ccc(S(N)(=O)=O)cc2)nc2ccc(-c3ccc(C(=O)NC4(C#N)CC4)cc3)nc12 |  |  | replicon |  | <0.1 µM
CC1(C)CC(=O)C2=C(C1)Nc1c(O)cccc1N(C(=O)CN1CCOCC1)C2c1ccc(OCc2ccccc2)cc1F | 1b |  | luciferase / reporter gene / replicon |  | 0.88 µM

The first 5 rows once more:

structure,strain or isolate,cell line,read by,setting,result
CCOCCN(C(=O)C1CCC(C)CC1)c1cc(-c2ccc(-c3cn4ccccc4n3)cc2)sc1C(=O)O,1b,,replicon / ELISA,,0.01–0.049 µM
COC(=O)N[C@H](C(=O)N1CCC[C@@H]1c1ncc(-c2ccc(-c3ccc(-c4cnc([C@@]5(C)CCCN5C(=O)[C@@H](N=C(NC#N)N(C)C)C(C)C)[nH]4)cc3)cc2)[nH]1)C(C)C,1b,,,,0.00001–0.000999 µM
COc1ccc(S(=O)(=O)Oc2ccccc2/C=N/NC(=O)Cc2cccc(OC)c2)cc1,,Huh7,replicon,,<5 µM
O=C(O)c1sc(-c2ccc(-c3cc4ncccn4n3)cc2)cc1N(C(=O)C1CCC(C(F)(F)F)CC1)C1CCOCC1,1a,,replicon / ELISA,,0.01–0.049 µM
Cc1cccc(C(=O)N2c3cccc(O)c3NC3=C(C(=O)CC(C)(C)C3)C2c2ccc(OCc3ccc(F)cc3)cc2F)n1,1b,,luciferase / reporter gene / replicon,,2.41 µM